Experiments:
[1] = system: HIV, chronically infected cells; assay: Virus Resistance Studies; type: cell-based; conditions: after 20 months
[2] = system: HIV; type: cell-based

## c1ccc2[nH]c(-c3cscn3)nc2c1 [thiabendazole, 2-(4-thiazolyl)-1-H-benzimidazole]
[1]
  development of resistant virus strains: no resistant virus strains
[2]
  therapeutic index (TI), ratio of toxic dose to efficacious dose: 2.8

From patent US6362207B1, “Methods of treating viral infections with benzimidazoles” (priority 1995, dated 2002)
